Pooled drug test results. Numbers come from NIAID ChemDB, via PubChem.

Shared fields: growth or infection tests; species: HIV-1; read by: RT activity; read-out: EC50

Rows are shuffled and stem from different studies. ECn: concentration that inhibits the pathogen or its effect by n%. An empty or dashed field is not shown. Two numbers with a dash give a range or band.

{"SMILES": "O=C(NCCc1ccccc1)Nc1cnccn1", "cells": "MT-4", "value": "<1 µg/mL"}
{"SMILES": "CC(C)C1=C2[C@H]3CC[C@@H]4[C@@]5(C)CC[C@H](OC(=O)CC(C)(C)C(=O)O)C(C)(C)[C@@H]5CC[C@@]4(C)[C@]3(C)CC[C@@]2(NC(=O)[C@H]2CCCN2C)CC1=O", "cells": "MT-2", "strain": "IIIB", "conditions": "30% human serum", "value": "<0.199 µM"}
{"SMILES": "N#Cc1csc(NC(=O)NCCc2ccccc2)n1", "cells": "MT-4", "value": "<0.1 µg/mL"}
{"SMILES": "CN(C)Cc1ccc(-c2cccc(-c3ccc(CN(C)C)cc3)n2)cc1", "cells": "PBMC", "strain": "LAV-1", "value": "1.6 µM"}
{"SMILES": "Nc1ccn([C@@H]2S[C@H](CO)C=C2F)c(=O)n1", "cells": "PBMC", "strain": "xxBRU", "value": "<5 µM"}
{"SMILES": "Nc1nc(NC2CC2)c2ncn([C@H]3CO[C@@H](CO)O3)c2n1", "cells": "MT-2", "strain": "IIIB Laboratory strain", "value": "0.14 µM"}
{"SMILES": "C[C@@H]1NC(=O)[C@H](C)N([C@H]2C[C@H](O)[C@@H](CO)O2)C1=O", "cells": "PBMC", "strain": "US/92/727", "value": "27.6 µM"}
{"SMILES": "Cc1cn(CC(F)(F)C(F)(F)CO)c(=O)[nH]c1=O", "cells": "PBMC", "strain": "LAI", "value": ">100 µM"}
{"SMILES": "NCCNc1nc(-c2ccoc2)cc(-c2cc3ccccc3s2)n1", "cells": "PBMC", "strain": "LAV-1", "value": "1.6 µM"}
{"SMILES": "CC(C)C1=C2[C@H]3CC[C@@H]4[C@@]5(C)CC[C@H](OC(=O)CC(C)(C)C(=O)O)C(C)(C)[C@@H]5CC[C@@]4(C)[C@]3(C)CC[C@@]2(NC(=O)NC[C@@H]2CCCN2C(=O)OC(C)(C)C)CC1=O", "cells": "MT-2", "strain": "IIIB", "conditions": "30% human serum", "value": "<0.199 µM"}
{"SMILES": "CN1C(=O)[C@@H](Cc2ccccc2)NC1=S", "cells": "MT-4", "value": "<100 µg/mL"}
{"SMILES": "O=C1CN([C@H]2C[C@H](O)[C@@H](CO)O2)C(=O)CN1", "cells": "PBMC", "strain": "US/92/727", "value": "72.3 µM"}
{"SMILES": "O=C(NCCc1ccccc1)Nc1nc2ccc(F)cc2s1", "cells": "MT-4", "value": "<100 µg/mL"}
{"SMILES": "COC(=O)Cc1cn([C@@H]2C=C[C@H](COP(=O)(N[C@@H](C)C(=O)OC)Oc3ccccc3)O2)c(=O)[nH]c1=O", "cells": "CEM", "strain": "LAI", "value": "85 µM"}
{"SMILES": "[N-]=[N+]=N[C@H]1C[C@H](N2CC(=O)NCC2=O)O[C@@H]1CO", "cells": "PBMC", "strain": "US/92/727", "value": "89.5 µM"}
{"SMILES": "COc1ccnc2[nH]cc(C(=O)C(=O)N3CCN(C(=O)c4ccccc4)C[C@H]3C)c12", "cells": "MT-2", "strain": "NL4-3(GP120-M475I) Recombinant", "changes": "GP120-M475I", "value": "2.689 µM"}
{"SMILES": "O=C(Cc1cn([C@H]2C=C[C@@H](CO)O2)c(=O)[nH]c1=O)NCCCCCCCCCCNC(=O)c1c2ccccc2nc2ccccc12", "cells": "CEM", "strain": "LAI", "value": ">10 µM"}
{"SMILES": "CCOC(=O)[C@H](C)NP(=O)(OCC(F)(F)C(F)(F)Cn1cc(C)c(=O)[nH]c1=O)Oc1ccccc1", "cells": "PBMC", "strain": "LAI", "value": "44 µM"}
{"SMILES": "C=CCN(CC=C)C(=S)N=Nc1c(O)n(CC=C)c2ccccc12", "cells": "H9/HIV-1 + H9", "conditions": "chronic infection", "value": "2 µg/mL"}
{"SMILES": "Cc1cccc(C(=O)N[C@@]23CC[C@]4(C)[C@H](CC[C@@H]5[C@@]6(C)CC[C@H](OC(=O)CC(C)(C)C(=O)O)C(C)(C)[C@@H]6CC[C@]54C)C2=C(C(C)C)C(=O)C3)c1", "cells": "MT-2", "strain": "IIIB", "conditions": "30% human serum", "value": "<0.199 µM"}
{"SMILES": "CN1c2c(-c3ccccc3)nn(CC(=O)N/N=C/c3cccc([N+](=O)[O-])c3)c2-c2ccccc2S1(=O)=O", "cells": "PBMC", "strain": "LAV-1", "value": ">100 µM"}
{"SMILES": "CCOC(=O)[C@H](C)NP(=O)(OCC(F)(F)C(F)(F)Cn1c(=O)cc[nH]c1=O)Oc1ccccc1", "cells": "PBMC", "strain": "LAI", "value": ">100 µM"}
{"SMILES": "CN1c2c(-c3ccccc3)nn(CC(=O)N/N=C/c3cccc(Cl)c3)c2-c2ccccc2S1(=O)=O", "cells": "PBMC", "strain": "LAV-1", "value": ">100 µM"}
{"SMILES": "Cc1cn(CC(F)(F)C(F)(F)C(F)(F)COP(=O)(N[C@@H](C)C(=O)OC(C)C)Oc2ccccc2)c(=O)[nH]c1=O", "cells": "PBMC", "strain": "LAI", "value": ">100 µM"}
{"SMILES": "Cc1ccc(-c2cccc(-c3ccc(CNCCN(C)C)cc3)n2)cc1", "cells": "PBMC", "strain": "LAV-1", "value": "4 µM"}
{"SMILES": "COC(=O)[C@H](C)NP(=O)(OC[C@H]1C=C[C@@H](n2cc(CC(=O)NCCCCCCNC(=O)C(F)(F)F)c(=O)[nH]c2=O)O1)Oc1ccccc1", "cells": "CEM", "strain": "LAI", "value": ">100 µM"}
{"SMILES": "O=C(CNC(=O)COc1ccccc1)NCc1ccc(C(=O)N2CCCCC2)cc1", "cells": "PBMC", "strain": "NL4-3", "value": "30.8 µM"}
{"SMILES": "Nc1nc2c(ncn2[C@H]2C=C[C@@H](CO)C2)c(=O)[nH]1", "cells": "H9", "strain": "IIIB", "value": "0.8 µM"}
{"SMILES": "COC(=O)Cc1cn([C@H]2C=C[C@@H](COP(=O)(N[C@@H](C)C(=O)OC)Oc3ccccc3)O2)c(=O)[nH]c1=O", "cells": "CEM", "strain": "LAI", "value": "100 µM"}
{"SMILES": "COC(=O)[C@H](C)NP(=O)(OC[C@@H]1C=C[C@H](n2cc(C)c(=O)[nH]c2=O)O1)Oc1ccc(OC)cc1", "cells": "PBMC", "strain": "IIIB", "value": "0.033 µM"}
{"SMILES": "COC(=O)[C@H](C)NP(=O)(OC[C@@H]1C=C[C@H](n2cc(CC(=O)NCCCCCCCCNC(=O)C(F)(F)F)c(=O)[nH]c2=O)O1)Oc1ccccc1", "cells": "CEM", "strain": "LAI", "value": ">100 µM"}
{"SMILES": "CN(C)CCNCc1ccc(-c2cccc(-c3ccc(CNCCN(C)C)cc3)n2)cc1", "cells": "PBMC", "strain": "LAV-1", "value": "3.7 µM"}
{"SMILES": "COC(=O)[C@H](C)NP(=O)(OC[C@@H]1C=C[C@H](n2cc(CC(=O)NCCCCCCNC(=O)C(F)(F)F)c(=O)[nH]c2=O)O1)Oc1ccccc1", "cells": "CEM", "strain": "LAI", "value": ">10 µM"}
{"SMILES": "Nc1nc2c(ncn2CC(F)(F)C(F)(F)CO)c(=O)[nH]1", "cells": "PBMC", "strain": "LAI", "value": ">100 µM"}
{"SMILES": "NCCCc1cn([C@H]2C=C[C@@H](CO)O2)c(=O)[nH]c1=O", "cells": "CEM", "strain": "LAI", "value": "480 µM"}
{"SMILES": "CC(C)C1=C2C3CCC4[C@@]5(C)CC[C@H](OC(=O)CC(C)(C)C(=O)O)C(C)(C)C5CC[C@@]4(C)[C@]3(C)CC[C@@]2(N(C)C(=O)C2CC3CCC(C2)O3)CC1=O", "cells": "MT-2", "strain": "IIIB", "conditions": "30% human serum", "value": "<0.199 µM"}
{"SMILES": "COc1ccc(-c2nc3ccccc3c(=O)n2NCC(=O)Nc2ccccc2)cc1", "cells": "CEM", "value": "73.4 µM"}
{"SMILES": "CCOC(=O)[C@H](C)NP(=O)(OCC(F)(F)C(F)(F)Cn1ccc(N)nc1=O)Oc1ccccc1", "cells": "PBMC", "strain": "LAI", "value": ">100 µM"}
{"SMILES": "COc1cc(/C=N/NC(=O)Cn2nc(-c3ccccc3)c3c2-c2ccccc2S(=O)(=O)N3C)cc(OC)c1OC", "cells": "PBMC", "strain": "LAV-1", "value": ">100 µM"}
{"SMILES": "CC(C)C1=C2C3CCC4[C@@]5(C)CC[C@H](OC(=O)CC(C)(C)C(=O)O)C(C)(C)C5CC[C@@]4(C)[C@]3(C)CC[C@@]2(NC(=O)NCc2ccsc2)CC1=O", "cells": "MT-2", "strain": "IIIB", "conditions": "30% human serum", "value": "<0.199 µM"}
{"SMILES": "O=C(Cc1cn([C@H]2C=C[C@@H](CO)O2)c(=O)[nH]c1=O)NCCCCCCCCCCCCNC(=O)c1c2ccccc2nc2ccccc12", "cells": "CEM", "strain": "LAI", "value": ">10 µM"}
{"SMILES": "CN1c2c(-c3ccccc3)nn(CC(=O)N/N=C/c3ccc(Cl)cc3)c2-c2ccccc2S1(=O)=O", "cells": "PBMC", "strain": "LAV-1", "value": ">100 µM"}
{"SMILES": "CC(C)C1=C2C3CCC4[C@@]5(C)CC[C@H](OC(=O)CC(C)(C)C(=O)O)C(C)(C)C5CC[C@@]4(C)[C@]3(C)CC[C@@]2(NC(=O)NCc2cncnc2)CC1=O", "cells": "MT-2", "strain": "IIIB", "conditions": "30% human serum", "value": "<0.199 µM"}
{"SMILES": "OCCN(CCO)c1nc(-c2cccs2)cc(-c2cccs2)n1", "cells": "PBMC", "strain": "LAV-1", "value": "4.5 µM"}
{"SMILES": "COC(=O)[C@H](C)NP(=O)(OC[C@@H]1C=C[C@H](n2cc(C)c(=O)[nH]c2=O)O1)Oc1ccccc1", "cells": "CEM + CEM TK-", "strain": "IIIB", "value": "0.133 µM"}
{"SMILES": "COc1cnc(-n2cnc(C)n2)c2[nH]cc(C(=O)C(=O)N3CCN(C(=O)c4ccccc4)CC3)c12", "cells": "MT-2", "strain": "NL4-3", "value": "0.0022 µM"}
{"SMILES": "CN1N=C(N)c2cn([C@@H]3O[C@H](COP(=O)(O)O)[C@@H](O)[C@H]3O)c3ncnc1c23", "strain": "IIIB", "value": "0.02 µM"}
{"SMILES": "CC(C)OC(=O)[C@H](C)NP(=O)(OCC(F)(F)C(F)(F)C(F)(F)Cn1c(=O)cc[nH]c1=O)Oc1ccccc1", "cells": "PBMC", "strain": "LAI", "value": ">100 µM"}
{"SMILES": "CC(C)C1=C2C3CCC4[C@@]5(C)CC[C@H](OC(=O)CC(C)(C)C(=O)O)C(C)(C)C5CC[C@@]4(C)[C@]3(C)CC[C@@]2(NC(=O)C(C)(C)C)CC1=O", "cells": "MT-2", "strain": "IIIB", "conditions": "30% human serum", "value": "<0.199 µM"}
{"SMILES": "CN1c2c(-c3ccccc3)nn(CC(=O)N/N=C/c3ccccc3[N+](=O)[O-])c2-c2ccccc2S1(=O)=O", "cells": "PBMC", "strain": "LAV-1", "value": ">100 µM"}
{"SMILES": "CNC1CCN(C(=O)N[C@@]23CC[C@]4(C)C(CCC5[C@@]6(C)CC[C@H](OC(=O)CC(C)(C)C(=O)O)C(C)(C)C6CC[C@]54C)C2=C(C(C)C)C(=O)C3)CC1", "cells": "MT-2", "strain": "IIIB", "conditions": "30% human serum", "value": "0.2–0.999 µM"}
{"SMILES": "CN(C)CCNc1nc(-c2cc3ccccc3s2)c2ccccc2n1", "cells": "PBMC", "strain": "LAV-1", "value": "1.7 µM"}

Repeating the first 8 entries:

SMILES | cells | strain | changes | conditions | value
O=C(NCCc1ccccc1)Nc1cnccn1 | MT-4 | - | - | - | <1 µg/mL
CC(C)C1=C2[C@H]3CC[C@@H]4[C@@]5(C)CC[C@H](OC(=O)CC(C)(C)C(=O)O)C(C)(C)[C@@H]5CC[C@@]4(C)[C@]3(C)CC[C@@]2(NC(=O)[C@H]2CCCN2C)CC1=O | MT-2 | IIIB | - | 30% human serum | <0.199 µM
N#Cc1csc(NC(=O)NCCc2ccccc2)n1 | MT-4 | - | - | - | <0.1 µg/mL
CN(C)Cc1ccc(-c2cccc(-c3ccc(CN(C)C)cc3)n2)cc1 | PBMC | LAV-1 | - | - | 1.6 µM
Nc1ccn([C@@H]2S[C@H](CO)C=C2F)c(=O)n1 | PBMC | xxBRU | - | - | <5 µM
Nc1nc(NC2CC2)c2ncn([C@H]3CO[C@@H](CO)O3)c2n1 | MT-2 | IIIB Laboratory strain | - | - | 0.14 µM
C[C@@H]1NC(=O)[C@H](C)N([C@H]2C[C@H](O)[C@@H](CO)O2)C1=O | PBMC | US/92/727 | - | - | 27.6 µM
Cc1cn(CC(F)(F)C(F)(F)CO)c(=O)[nH]c1=O | PBMC | LAI | - | - | >100 µM